Pooled drug test results. Numbers come from NIAID ChemDB, via PubChem.

Common to all: growth or infection tests; organism: HIV-1; read by: MTT; read-out: EC50

ECn is the concentration giving n% inhibition of infection, replication or growth. Blank or dashed fields: not listed here. Rows are shuffled and stem from different studies.

SMILES | mutations | cells | strain | value
Cc1cc(/C=C/C#N)cc(C)c1Oc1nc(NC2CCN(Cc3cccnc3)CC2)nc2ccsc12 | NNRTI-resistant (RT Y181C) | MT-4 | IIIB | 0.00606 µM
C=C(CC[C@](C)(O)[C@H]1C(=O)C[C@H]2[C@@H]3[C@H](O)C[C@H]4CC(=O)CC[C@]4(C)[C@H]3CC[C@@]21C)C(C)C |  | MT-4 | NL4-3 | 6.25 µM
S=C(Nc1ccc(I)cc1)NC1CCN(Cc2ccccc2)CC1 |  | MT-4 | IIIB | >7 µM
C(=N\Nc1nc(-c2ccccc2)cs1)/c1ccccn1 |  | MT-4 | IIIB | >2.97 µM
S=C(Nc1ccc(Cl)cc1)NC1CCN(Cc2ccccc2)CC1 |  | MT-4 | IIIB | >18 µM
COc1c(-c2cc(C)n(C)n2)c(O)c(S(=O)(=O)OC2CCCCC2)c2occc12 |  | MT-4 | IIIB | 0.000023 µM
S=C(NCc1ccco1)Nc1ccccc1Br |  | MT-4 | IIIB | >100 µM
Cc1cc(/C=C/C#N)cc(C)c1Oc1nc(NC2CCN(Cc3ccccc3C#N)CC2)nc2ccsc12 | NNRTI-resistant (RT K103N) | MT-4 | IIIB | 0.0175 µM
Cc1cc(-c2ccc(C#N)cc2)cc(C)c1Oc1ccnc(S(=O)(=O)CC(=O)Nc2ccc(Br)cc2)n1 | K103N | MT-4 | IIIB | 0.03 µM
Nc1nc(NC2CC2)c2ncn([C@H]3C=C[C@@H](CO)C3)c2n1 |  | MT-4 | IIIB | 0.05 µg/mL
CSCC[C@H](C)OC(=O)[C@@H](N)c1ccccc1-c1c[nH]c2ccccc12 |  | MT-4 | NL4-3 | 4.4 µM
Cc1cc(Br)cc(C)c1Oc1ncc([N+](=O)[O-])c(Nc2ccc(C#N)cc2)n1 |  | MT-4 | IIIB | 0.063 µM
COc1c2ccoc2c(S(=O)(=O)Oc2ccc([N+](=O)[O-])cc2)c2oc(C)cc(=O)c12 |  | MT-4 | IIIB | 0.000057 µM
CCc1c(Cc2cc(C)cc(C)c2)n(COCC#Cc2cccc(CO[Si](c3ccccc3)(c3ccccc3)C(C)(C)C)c2)c(=O)[nH]c1=O | K103N + Y181C | MT-4 | IIIB | >100 µM
Cc1ccnc2c1NC(=O)c1cccnc1N2C1CC1 |  | MT-4 | IIIB | 0.22 µM
O=C1Nc2ccc(Cl)cc2[C@@](C#CC2CC2)(C(F)(F)F)O1 | Efavirenz-resistant (K103R + V179D + P225H) | MT-4 | IIIB | 14 µM
Cc1cc(-c2ccc(C#N)cc2)cc(C)c1Oc1ccnc(S(=O)(=O)C(C)C(=O)Nc2ccc(Cl)cc2)n1 | L100I | MT-4 | IIIB | 0.069 µM
O=c1oc2cc(O)c(O)cc2c(O)c1-c1coc2c1c(=O)oc1cc(O)c(O)cc12 |  | MT-4 | IIIB | 5 µM
O=[N+]([O-])c1ccc(-c2csc(N/N=C/c3ccncc3)n2)cc1 |  | MT-4 | IIIB | >75.6 µM
Cc1ccccc1CN1CCC(Nc2nc(Oc3c(C)cc(/C=C/C#N)cc3C)c3sccc3n2)CC1 | NNRTI-resistant (RT Y188L) | MT-4 | IIIB | 0.174 µM
Cc1nc2c(c(C)c(C)n2Cc2cocn2)c(-c2ccc(Cl)cc2)c1[C@H](OC(C)(C)C)C(=O)O |  | MT-4 | IIIB | 0.00975 µM
CCc1c(Cc2cc(OC)cc(OC)c2)[nH]c(=O)[nH]c1=O | Y181C | MT-4 | N119 | >100 µM
COc1cc(/C(C)=N/Nc2nc(-c3ccc(Cl)cc3)cs2)cc(OC)c1OC |  | MT-4 | IIIB | >16.39 µM
Cc1cc(-c2ccc(C#N)cc2)cc(C)c1Oc1ccnc(S(=O)(=O)CC(=O)NCc2ccc(F)cc2)n1 |  | MT-4 | IIIB | >6.42 µM
CCCC[C@H](C)OC(=O)[C@@H](N)c1ccccc1-c1c[nH]c2ccccc12 |  | MT-4 | NL4-3 | 2.7 µM
C=C(C)COCn1c(Cc2cc(F)ccc2F)c(CC)c(=O)[nH]c1=O |  | MT-4 | IIIB | 0.2 µM
CCOCn1c(Cc2ccccc2)c(C(C)C)c(=O)[nH]c1=O |  | MT-4 | IIIB | 0.03 µM
CCOC(=O)c1ccc(CN2CCC(Nc3nc(Oc4c(C)cc(C#N)cc4C)c4ccsc4n3)CC2)cc1 |  | MT-4 | RES056 | 40.9 µM
CC(C)C[C@H]1NC(=O)C(Cc2cn([C@]34C[C@H]5C(=O)N[C@H](Cc6ccccc6)C(=O)N5[C@H]3Nc3ccccc34)c3ccccc23)NC1=O |  | C8166 |  | >100 µM
Cc1cn([C@H]2C[C@H](N=[N+]=[N-])[C@@H](CO)O2)c(=O)[nH]c1=O |  | MT-4 | IIIB | 0.002 µg/mL
Clc1ccc(-c2csc(N/N=C/c3ccco3)n2)cc1 |  | MT-4 | IIIB | >27.9 µM
CCCCCCCCCCCCCCCC(=O)N(CCCCCCCCCCC(=O)O)C[C@H](O)[C@@H](O)[C@H](O[C@@H]1O[C@H](CO)[C@H](O)[C@H](O)[C@H]1O)[C@H](O)CO |  | CEM + CEM-SS | LAI | 50 µM
Fc1ccc(NC(=S)NC2CCN(Cc3ccccc3)CC2)cc1Cl |  | MT-4 | IIIB | >15.7 µM
CCOCn1c(Cc2cccc(C(F)(F)F)c2)c(CC)c(=O)[nH]c1=O |  | MT-4 | EFV-resistant (K103R V179D P225H) | >100 µM
NC(=O)c1cn(CCO)c(Cc2ccccc2)cc1=O |  | C8166 |  | >100 µM
COc1c(C(=O)/C=C(/C)Nc2ccccc2)c(O)c(S(=O)(=O)OC2CCCCC2)c2occc12 |  | MT-4 | IIIB | 0.000047 µM
Brc1cccc(-c2nc(-c3nnc(C45CCC6CC(CC4C6)C5)o3)cs2)c1 |  | MT-4 | IIIB | >125 µM
CC(C)[C@H](C)CC[C@](C)(O)[C@H]1C(=O)C[C@H]2[C@@H]3C(=O)C=C4C[C@@H](O)CC[C@]4(C)[C@H]3CC[C@@]21C | G140S INI-resistant | MT-4 | NL4-3 | 0.1402 µM
CCc1c(Cc2cc(C)cc(C)c2)n(COCC#Cc2cccc(C#N)c2)c(=O)[nH]c1=O | K103N + Y181C | MT-4 | IIIB | 8.5 µM
Nc1ccn([C@H]2CC[C@@H](CO)O2)c(=O)n1 | Y188L | MT-4 |  | 0.09 µM
Cc1cc(C#N)cc(C)c1Oc1nc(NC2CCC(NCc3ccccc3)CC2)nc2ccsc12 | NNRTI-resistant (RT Y181C) | MT-4 | IIIB | >2.98 µM
CCc1c(Cc2cc(C)cc(C)c2)n(COCC#Cc2ccc(CO)cc2)c(=O)[nH]c1=O | WT | MT-4 | IIIB | 0.007 µM
O=C1N[C@H](Cc2ccccc2)C(=O)NC1Cc1c[nH]c2c([C@]34C[C@H]5C(=O)N[C@H](Cc6ccccc6)C(=O)N5[C@H]3Nc3ccccc34)cccc12 |  | C8166 |  | 98.9 µM
CC(=O)Nc1cnc(Oc2c(Cl)cc(Cl)cc2Cl)nc1Nc1ccc(C#N)cc1 |  | MT-4 | RES056 | >33 µM
CCOCn1c(Cc2cc(OC)cc(OC)c2)c(CC)c(=O)[nH]c1=O |  | MT-4 | IIIB | 0.6 µM
COc1c(C(=O)/C=C(/C)Nc2ccc(F)cc2)c(O)c(S(=O)(=O)Oc2ccc(F)cc2)c2occc12 |  | MT-4 | IIIB | 0.000036 µM
Clc1cccc(-c2nc(-c3nnc(C45CCC6CC(CC4C6)C5)o3)cs2)c1 |  | MT-4 | IIIB | >125 µM
CSCCC(OC(=O)[C@@H](N)c1ccccc1-c1c[nH]c2ccccc12)C(C)C |  | MT-4 | NL4-3 | 25 µM
C=CCOCn1c(C(F)c2cccc(C#N)c2)c(CC)c(=O)[nH]c1=O |  | MT-4 | IIIB | 0.05 µM
COc1c(C(=O)/C=C(/C)Nc2ccccc2)c(O)c(S(=O)(=O)Oc2ccc(F)cc2)c2occc12 |  | MT-4 | IIIB | 0.000039 µM
CSCC[C@H](C)OC(=O)[C@@H](NC(=O)CSC(C)(C)C)c1ccccc1-c1c[nH]c2ccccc12 |  | MT-4 | NL4-3 | >16 µM
Cc1nc2c(c(C)c(C)n2Cc2ccco2)c(-c2ccc(Cl)cc2)c1[C@H](OC(C)(C)C)C(=O)O |  | MT-4 | IIIB | 0.0291 µM
CCOCn1c(Cc2cc(C(F)(F)F)cc(C(F)(F)F)c2)c(C(C)C)c(=O)[nH]c1=O |  | MT-4 | N119 (Y181C) | 17 µM
N#Cc1ccc(Nc2nc(Oc3c(Br)cc(Br)cc3Br)ncc2N)cc1 |  | MT-4 | IIIB | 0.05 µM
Cc1nc2[nH]c(C)c(C)c2c(-c2ccc(Cl)cc2)c1C(OC(C)(C)C)C(=O)O |  | MT-4 | IIIB | 0.399 µM
CCc1c(Cc2cc(OC)cc(OC)c2)n(COCCOc2ccccc2)c(=O)[nH]c1=O | Y181C | MT-4 | N119 | >41 µM
CCC(CCSC)OC(=O)[C@@H](N)c1ccccc1-c1c[nH]c2ccccc12 |  | MT-4 | NL4-3 | 7.6 µM
Cc1cc(Br)cc(C)c1Oc1ncc(N)c(Nc2ccc(C#N)cc2)n1 |  | MT-4 | RES056 | 4.8 µM
Cc1cc(-c2ccc(C#N)cc2)cc(C)c1Oc1ccnc(S(=O)(=O)CC(=O)Nc2ccc(Cl)cc2)n1 |  | MT-4 | IIIB | 0.034 µM
Cc1nc2c(c(C)c(C)n2Cc2cn[nH]c2)c(-c2ccc(Cl)cc2)c1[C@H](OC(C)(C)C)C(=O)O |  | MT-4 | IIIB | 0.0249 µM
Cc1cc(C#N)cc(C)c1Oc1ccnc(S(=O)(=O)CC(=O)Nc2ccc(C#N)cc2)n1 | E138K | MT-4 | IIIB | 0.31 µM
CCOCn1c(Cc2ccccc2)c(C(C)C)c(=O)[nH]c1=O | K103N + Y181C |  | A17 | 56 µM
CCc1c(Cc2cc(C)cc(C)c2)n(COCC#Cc2cc(C(F)(F)F)cc(C(F)(F)F)c2)c(=O)[nH]c1=O | WT | MT-4 | IIIB | 0.8 µM
Cc1nc2c(c(C)c(C)n2Cc2cncs2)c(-c2ccc(Cl)cc2)c1[C@H](OC(C)(C)C)C(=O)O |  | MT-4 | IIIB | 0.009 µM
CCCCCCCC(=O)O.CCCCCCCCNCC(O)C(O)C(OC1OC(CO)C(O)C(O)C1O)C(O)CO |  | CEM + CEM-SS | LAI | >1000 µM
CCOCn1c(C(=O)c2cccc(C#N)c2)c(CC)c(OC)nc1=O |  | MT-4 | IIIB | 10 µM
C(=N\Nc1nc(-c2ccccc2)cs1)/c1ccco1 |  | MT-4 | IIIB | >11.3 µM
Cc1ccc(Cl)cc1NC(=S)NC1CCN(Cc2ccccc2)CC1 |  | MT-4 | IIIB | >37 µM
Clc1ccc(-c2csc(N/N=C/c3ccncc3)n2)cc1 |  | MT-4 | IIIB | >125 µM
Cc1cc(C=O)cc(C)c1Oc1ncc(N)c(Nc2ccc(C#N)cc2)n1 |  | MT-4 | IIIB | 0.066 µM
CCn1c(C)c(C)c2c(-c3ccc(Cl)cc3)c([C@@H](OC(C)(C)C)C(=O)O)c(C)nc21 |  | MT-4 | IIIB | 1.12 µM
Clc1ccc(-c2nc(-c3nnc(C45CCC6CC(CC4C6)C5)o3)cs2)cc1 |  | MT-4 | IIIB | >125 µM
Nc1ccn([C@H]2CC[C@@H](CO)O2)c(=O)n1 |  | MT-4 | Clinical isolate | 3.62 µg/mL
CCc1c(Cc2ccccc2C)n(COCC#Cc2cccc3ccccc23)c(=O)[nH]c1=O | Y181C | MT-4 | IIIB | >34 µM
Cc1cc(C)c(Oc2ncc(NC(=O)C(F)(F)F)c(Nc3ccc(C#N)cc3)n2)c(C)c1 |  | MT-4 | RES056 | 32 µM
CCc1c(Cc2cc(C)cc(C)c2)n(COCC#Cc2ccc(N)cc2)c(=O)[nH]c1=O | WT | MT-4 | IIIB | 0.007 µM
CC(=O)Nc1cnc(Oc2c(C)cc(C=O)cc2C)nc1Nc1ccc(C#N)cc1 |  | MT-4 | RES056 | >236 µM
C=CCOCn1c(Cc2cc(F)ccc2F)c(CC)c(=O)[nH]c1=O | K103N + Y181C | MT-4 | A17 | 14 µM
COc1ccccc1CCNC(=S)NC(=O)c1csc(-c2ccccc2)n1 |  | MT-4 | IIIB | >11.72 µM
Cc1cc(/C=C/C#N)cc(C)c1Oc1nc(NC2CCN(Cc3ccc(C#N)cc3)CC2)nc2ccsc12 |  | MT-4 | RES056 | 0.0597 µM
Cc1cc(C#N)cc(C)c1Oc1ncc(N)c(Nc2ccc(C#N)cc2)n1 |  | MT-4 | IIIB | 0.002 µM
S=C(NCc1ccco1)Nc1cccc(Cl)c1 |  | MT-4 | IIIB | >60 µM
C/C(=N\Nc1nc(-c2ccc([N+](=O)[O-])cc2)cs1)c1ccc2c(c1)OCO2 |  | MT-4 | IIIB | >97.2 µM
CCc1c(Cc2ccccc2C)n(COCC#Cc2ccc(N)cc2)c(=O)[nH]c1=O | Y181C | MT-4 | IIIB | >39 µM
COc1c(-c2cc(C)[nH]n2)c(O)c(S(=O)(=O)OC2CCCC2)c2occc12 |  | MT-4 | IIIB | 0.000025 µM
C=C(C)COCn1c(Cc2c(F)c(F)cc(F)c2F)c(CC)c(=O)[nH]c1=O |  | MT-4 | N119 (Y181C) | >38 µM

5 of the rows above, restated:

SMILES | mutations | cells | strain | value
O=[N+]([O-])c1ccc(-c2csc(N/N=C/c3ccncc3)n2)cc1 |  | MT-4 | IIIB | >75.6 µM
Cc1cc(-c2ccc(C#N)cc2)cc(C)c1Oc1ccnc(S(=O)(=O)CC(=O)Nc2ccc(Br)cc2)n1 | K103N | MT-4 | IIIB | 0.03 µM
COc1ccccc1CCNC(=S)NC(=O)c1csc(-c2ccccc2)n1 |  | MT-4 | IIIB | >11.72 µM
CCOC(=O)c1ccc(CN2CCC(Nc3nc(Oc4c(C)cc(C#N)cc4C)c4ccsc4n3)CC2)cc1 |  | MT-4 | RES056 | 40.9 µM
COc1c(-c2cc(C)[nH]n2)c(O)c(S(=O)(=O)OC2CCCC2)c2occc12 |  | MT-4 | IIIB | 0.000025 µM